Target: HA of A/Vietnam/1203/04 (H5N1) virus (Influenza A virus A/Vietnam/1203/04 …)
Experiment: cell-based or functional assay

B1: CT120 (antibody, V domains shown)
VH: QVQLVQSGAEVKMPGSSVKVSCKTSGVFFSSHAISWVRQAPGQGLEWMGGISPMFGTTHYAQKFQGRVTITADQSTTTAYMELTSLTSEDTAVYYCARDGAGSYYPLNWFDPWGQGTLVTVSS
VL: EIVLTQSPATLSLSPGERATLSCRASENIWNNLAWYQQKPGQAPRLLISGASTGATGVPSRFRGSGSRTEFTLTISSLQSEDFAIYFCQQYNSWPRTFGPGTKVEIKR
  EC50, microneutralization test: 3.46 µg/mL

Reference: patent US20160052997A1 (CELLTRION, published 2016)
